One assay relates to A/Bayern/63/2009 (H1N1). Put plainly: Hemagglutination inhibition (HAI) assay, A/Bayern/63/2009 (H1N1). To be noted: read-out: Ki(HAI) ± SD, lowest inhibitor concentration for full inhibition of virus-induced agglutination. The method, then: (§1) The hemagglutination inhibition (HAI) assay was performed with different compounds using influenza A viruses A/X31 (H3N2), A/Panama/2007/1999 (H3N2), A/California/7/2009 (H1N1pdm) and A/Bayern/63/2009 (H1N1pdm). In the HAI assay is that IAV inhibitors will prevent the attachment of the virus to RBC. Therefore, hemagglutination is inhibited when inhibitors are present. Using different dilution of compounds, lowest inhibitory concentrations of compounds is evaluated. The Ki (HAI) reflects the lowest inhibitor concentration necessary to achieve full inhibition of virus-induced hemagglutination.
(§2) Inhibitors were fourfold serially diluted in PBS. Then, 4 HAU from A/X31 (H3N2), A/Panama/2007/2009 (H3N2), A/California/7/2009 (H1N1) or A/Bayern/63/2009 (H1N1) virus containing approximately 4×10^7 virus particles were added and gently mixed. After 15 min inculabtion at rt, 50 μl of a 1% chicken erythrocyte solution (preclinics GmbH) was added, gently mixed, and incubated for 30 min at rt. […]
(§3) Influenza A viruses A/X31 (H3N2) (reassortant with HA and NA segment of influenza strain A/Aichi/2/68 (H3N2) in the background of A/PuertoRico/8/1934 (H1N1)), A/Panama/2007/1999 (H3N2), A/PR/8/34 (H1N1) and A/Bayern/63/2009 pdm (H1N1) were grown in embryonated chicken eggs. […] Titers of virus stocks were determined by plaque titration. […]

Assay [1] has as its system A/California/7/2009 (H1N1). As to the kind of experiment: Hemagglutination inhibition (HAI) assay, A/California/7/2009 (H1N1). The following applies: read-out: Ki(HAI) ± SD, lowest inhibitor concentration for full inhibition of virus-induced agglutination. The method, then: as §1
(§4) Inhibitors were fourfold serially diluted in PBS. Then, 4 HAU from A/X31 (H3N2), A/Panama/2007/2009 (H3N2), A/California/7/2009 (H1N1) or A/Bayern/63/2009 (H1N1) virus containing approximately 4×10^7 virus particles were added and gently mixed. After 15 min inculabtion at rt, 50 μl of a 1% chicken erythrocyte solution (preclinics GmbH) was added, gently mixed, and incubated for 30 min at rt. The inhibitor constant KiHAI, reflects the lowest inhibitor concentration, which is necessary to achieve full inhibition of virus induced hemagglutination. To check for full hemagglutination inhibition, the microtiter plate was tilted by 60° to cause droplet formation from red blood cell pellet.

For the next assay, the system named is A/X31 (H3N2). As to the kind of experiment: Hemagglutination inhibition (HAI) assay, A/X31 (H3N2). The following applies: read-out: Ki(HAI) ± SD, lowest inhibitor concentration for full inhibition of virus-induced agglutination. As to the method:
as §1, §2, §3

The next assay has as its system IAV virus strains. As to the kind of experiment: Inhibition of virus propagation, multicyclic infection of MDCK II cells, tested strains together. To be noted: MOI 0.01, 24 h. As to the method: The therapeutic activity against virus propagation was analyzed in a multicyclic infection setup with the A/X31 (H3N2), A/Panama/2007/2009 (H3N2) and A/Bayern/63/2009 (H1N1pdm) subtypes.
Madin-Darby Canine Kidney (MDCK II) cells were washed with PBS and subsequently infected with the indicated virus at multiplicity of infection (MOI) 0.01 for 1 h. Input virus was removed, and unbound virus washed off with PBS. Cells were then incubated with infection medium (MEM supplemented with 0.2% BSA, 2 mM L-glutamine, […] streptomycin and 100 units/mL penicillin and 2.5 mg/mL TPCK-treated trypsin) containing the indicated compound at the indicated concentration. After 24 h, virus titers in the supernatants were determined by plaque assay as described before (M. Matrosovich et al. Virol J 2006, 3, 63.)
IC50 values were calculated by fitting the data from the curves obtained by plotting the different concentrations of each compound (for each compound and each concentration data from three independent experiments were determined in duplicates), using a 4th-order non-linear regression fit in Graphpad Prism.
MDCK II cells were washed with PBS and subsequently infected with the indicated virus at MOI 0.01 for 45 minutes. Input virus was removed, and unbound virus washed off with PBS. […] After 24 h, virus titers in the supernatants were determined by plaque assay as described before.^[3] […]

The subject of a further assay is IAV strains. Put plainly: Hemagglutination inhibition (HAI) assay, all tested IAV strains. The method, then: as §1, §4
Assay [2] deals with A/Panama/2007/2009 (H3N2). Put plainly: Hemagglutination inhibition (HAI) assay, A/Panama/2007/2009 (H3N2). To be noted: read-out: Ki(HAI) ± SD, lowest inhibitor concentration for full inhibition of virus-induced agglutination. As to the method:
as §1, §2, §3

The subject of another assay is HA. To be noted: read-out: binding affinity Kd of monovalent SA to HA; cited from earlier work.

For the molecule `CC(=O)N[C@H]1[C@H]([C@H](O)[C@H](O)CO)OC(C(=O)O)=C[C@@H]1N=C(N)N`, the Ki (in the assay with A/Bayern/63/2009 (H1N1); in assay [1]; in the assay with A/X31 (H3N2); in assay [2]) was over 160 µM each time. Besides, in the assay on IAV virus strains, the “inhibition of virus propagation, in words” value is given as “some activity against one or more of the tested strains”. Besides, the “HA inhibition (hemagglutination inhibition), in words” value in the assay on IAV strains is “No HA inhibition”.

Take `CC(=O)N[C@H]1C([C@H](O)[C@H](O)CO)O[C@@](OCC2O[C@@H](O[C@@H]3C(CO)OC(O)C(O)[C@H]3O)C(O)[C@@H](O)[C@H]2O)(C(=O)[O-])C[C@H]1O.[Na+]` (some centres unmarked): the “HA inhibition (hemagglutination inhibition), in words” value in the assay with IAV strains is “No HA inhibition”.

In general, Kd refers to the concentration at which binding is half-saturated. Turning to sialic acid, the Kd with HA was 2000 to 4000 µM.

The values above are taken from US20260382732A1, “HETEROMULTIVALENT POLYMERS AND ANTIVIRAL APPLICATIONS THEREOF” (published 2026).
